A mixed list of measured activities; the numbers were collected in NIAID ChemDB.

Common to all: growth or infection tests; species: Hepatitis B virus; method: PCR; measure: EC50

Two numbers with a dash give a range or band.

SMILES,cells,conditions,result
C=C[C@](C)(CO)NC(=O)C(=O)c1c(C)c(C(=O)Nc2ccc(F)c(C(F)(F)F)c2)n(C)c1C,HepG2.2.15,-,0.001–0.0099 µM
CC(C)NC(=O)c1ccc(-n2c(=O)c3c(n4ncc(Cc5ccccc5)c24)CN(C(=O)c2ccc(Br)c(C#N)c2)CC3)cc1,HepG2.117,3 d,0.5–5 µM
COc1cccnc1-n1cc(S(=O)(=O)Nc2ccc3c(C(=O)Nc4ccc(F)c(Cl)c4)n(C)nc3c2)cn1,HepAD38,-,<100 µM
Cc1cc(C(=O)N2CCS(=O)(=O)[C@H](c3cccs3)C2)ccc1Cl,HepG2.2.15,-,0.1–0.5 µM
Cn1nc2cc(S(=O)(=O)NCC3CC3)ccc2c1C(=O)Nc1ccc(F)c(Cl)c1,HepAD38,-,100–1000 µM
COc1ccc(-n2c(C(=O)NCc3ccc4c(c3)OCO4)c3n(c2=O)CCN(C(=O)c2ccc(Br)c(Cl)c2)C3)cc1,HepG2.117,-,0.1–0.5 µM
Cn1nc2cc(NS(=O)(=O)c3cnn(-c4cc(OCc5ccccc5)ccn4)c3)ccc2c1C(=O)Nc1ccc(F)c(Cl)c1,HepAD38,-,100–1000 µM
N#Cc1cc(C(=O)N2CCS(=O)(=O)[C@@](F)(c3ncc(Cc4ccccc4)s3)C2)ccc1Br,HepG2.117,-,<0.1 µM
Cc1c(C(=O)C(=O)NC(C)(C)c2ccncn2)c(C)n(C)c1C(=O)Nc1ccc(F)c(C#N)c1,HepG2.2.15,-,0.001–0.0099 µM
C[C@H](NC(=O)c1c2n(c(=O)n1-c1ccc(OCC(F)(F)F)cc1)CCN(C(=O)c1ccc(Br)c(Cl)c1)C2)c1ccc(OCC(N)=O)cc1-n1cccn1,HepG2.117,-,>0.5 µM
Cn1nc2cc(NS(=O)(=O)NCc3ncccc3F)ccc2c1C(=O)Nc1ccc(F)c(Cl)c1,HepAD38,-,100–1000 µM
C[C@@H](Oc1ccc(-n2c(C(=O)NCc3ccccc3)c3n(c2=O)CCN(C(=O)c2ccc(Br)c(Cl)c2)C3)cc1)C(F)(F)F,HepG2.117,-,0.5–5 µM
Cn1nc2ccc(NC(=O)OCc3cccc(-c4ccccc4)c3)cc2c1C(=O)Nc1ccc(F)c(Cl)c1,HepAD38,-,>1000 µM
COc1ccc(CNC(=O)c2c3n(c(=O)n2-c2ccc(OC(C)C)cc2)CCN(C(=O)c2ccc(Br)c(Cl)c2)C3)cc1,HepG2.117,-,0.1–0.5 µM
C=C[C@@](C)(CO)NC(=O)C(=O)c1c(C)c(C(=O)Nc2ccc(F)c(C#N)c2)n(C)c1C,HepG2.2.15,-,0.001–0.0099 µM
C[C@@H](NC(=O)c1c2n(c(=O)n1C)CCN(C(=O)c1ccccc1)C2)c1ccccc1,HepG2.117,-,0.5–5 µM
Cc1cc2n(-c3ccccc3)c(=O)c3c(n2n1)CN(C(=O)c1ccc(Br)c(F)c1)CC3,HepG2.117,3 d,>5 µM
C#CC1(NC(=O)C(=O)c2c(C)c(C(=O)Nc3ccc(F)c(C(F)(F)F)c3)n(C)c2C)CC1O,HepG2.2.15,-,<0.001 µM
Cn1nc2cc(NS(=O)(=O)c3cnn(-c4ccc(F)cn4)c3)ccc2c1C(=O)Nc1ccc(F)c(Cl)c1,HepAD38,-,<100 µM
C#C[C@H](NC(=O)C(=O)c1c(C)c(C(=O)Nc2ccc(F)c(C#N)c2)n(C)c1C)OC,HepG2.2.15,-,0.001–0.0099 µM
Cc1cccc(-n2cc(S(=O)(=O)Nc3ccc4c(C(=O)Nc5ccc(F)c(Cl)c5)n(C)nc4c3)cn2)n1,HepAD38,-,<100 µM
CNC(=O)c1ccc(-n2c(=O)c3c(n4ncc(NCc5ccc(OC(F)(F)F)cc5)c24)CN(C(=O)c2ccc(Cl)c(Cl)c2)CC3)cc1,HepG2.117,3 d,0.1–0.5 µM
C[C@H](c1cnc([C@@]2(F)CN(C(=O)c3ccc(Br)c(C#N)c3)CCS2(=O)=O)s1)c1ccccc1F,HepG2.117,-,<0.1 µM
C#CC1(NC(=O)C(=O)c2c(C)c(C(=O)Nc3ccc(F)c(C#N)c3)n(C)c2C)CC(O)C1,HepG2.2.15,-,0.001–0.0099 µM
Cn1nc2cc(NS(=O)(=O)c3cnn(-c4ccccn4)c3)ccc2c1C(=O)Nc1ccc(F)c(Cl)c1,HepAD38,-,<100 µM
C[C@H](Oc1ccc(CNC(=O)c2c3n(c(=O)n2-c2ccc(OCC(F)(F)F)cc2)CCN(C(=O)c2ccc(Br)c(Cl)c2)C3)c(F)c1)C(N)=O,HepG2.117,-,0.5–5 µM
Cn1nc2cc(NS(=O)(=O)C3CC3)ncc2c1C(=O)Nc1ccc(F)c(Cl)c1,HepAD38,-,>1000 µM
COc1ccc(-n2c(C(=O)NCc3ccccc3)c3n(c2=O)CCN(c2ncnc4cc(Cl)c(Cl)cc24)C3)cc1,HepG2.117,-,>5 µM
CNC(=O)c1ccc(-n2c(=O)c3c(n4ncc(Cc5ccccc5)c24)CN(C(=O)c2ccc(Br)cn2)CC3)cc1,HepG2.117,3 d,0.5–5 µM
C[C@@H](NC(=O)c1c2n(c(=O)n1-c1ccc(OCC(F)(F)F)cc1)CCN(C(=O)c1ccc(Br)c(Cl)c1)C2)c1ccc(OC(F)F)cc1F,HepG2.117,-,0.5–5 µM
O=C(c1ccc(Cl)c(Cl)c1)N1CCS(=O)(=O)[C@@H](c2cccs2)C1,HepG2.2.15,-,0.5–5 µM

A second listing of 3 rows from above:

SMILES | cells | conditions | result
C[C@@H](Oc1ccc(-n2c(C(=O)NCc3ccccc3)c3n(c2=O)CCN(C(=O)c2ccc(Br)c(Cl)c2)C3)cc1)C(F)(F)F | HepG2.117 | - | 0.5–5 µM
COc1ccc(CNC(=O)c2c3n(c(=O)n2-c2ccc(OC(C)C)cc2)CCN(C(=O)c2ccc(Br)c(Cl)c2)C3)cc1 | HepG2.117 | - | 0.1–0.5 µM
O=C(c1ccc(Cl)c(Cl)c1)N1CCS(=O)(=O)[C@@H](c2cccs2)C1 | HepG2.2.15 | - | 0.5–5 µM

Blank or dashed fields: not listed here. Neighbouring rows are from separate reports. ECn: concentration that inhibits the pathogen or its effect by n%.